Experimental findings from paper doi:10.1101/2021.12.08.471876 (bioRxiv, 2021) are described below.

The experiment addresses purified recombinant GRP78 protein (GRP78-His) (human, NT-647 fluorescent label (in the MST only)). Description: MST.

The term Kd denotes the equilibrium constant for the complex coming apart.

B1: GST-preS1 truncated protein preS1-p1 ([…]) (domain or fragment)
chain: not shown
Regarding B1, the Kd stood at 899 nM.
